Results of unrelated studies side by side (data: NIAID ChemDB).

All rows: whole-cell or culture tests; agent: Measles virus

Neighbouring rows are from separate reports.

CC(C)CS[C@@H]1C[C@H](n2cnc3c(N)ncnc32)[C@@H](O)[C@H]1O ; endpoint: EC50 ; strain: DAVIS ; cells: HEL ; read by: cytopathic effect ; result: >100 µg/mL
Nc1ncnc2c1ncn2[C@@H]1C[C@H](COP(=O)(O)O)[C@@H](O)[C@H]1O ; endpoint: EC50 ; cells: VERO ; read by: cytopathic effect ; result: >200 µg/mL
O=C(NC1CC1)c1cc2c(s1)-c1ccccc1N(C(=O)c1ccc(NC(=O)c3ccccc3-c3ccccc3)cc1)CC2 ; endpoint: EC50 ; strain: Sugiyama ; cells: HeLa ; read by: plaque count ; result: >100 µM
CSc1nsc(-c2ccc(OCCCOc3ccc([N+](=O)[O-])cc3)cc2)c1C#N ; endpoint: EC50 ; cells: HEP-2/L-929/VERO ; read by: plaque count ; result: >0.5 µM
COc1ccc(-c2snc(SC)c2C#N)cc1 ; endpoint: EC50 ; strain: Edmonston ; cells: HEP-2 ; read by: plaque count ; result: >10 µM
COc1ccc(/C=N/N=C(/N)NO)c(OC)c1OC.Cc1ccc(S(=O)(=O)O)cc1 ; endpoint: EC50 ; cells: VERO ; read by: plaque count ; result: >50 µM
O=C(O)c1cn(/N=C/c2ccc(Cl)cc2)c(=O)c2ccccc12 ; endpoint: EC50 ; strain: Edmonston ; cells: HEP-2/L-929/VERO ; read by: plaque count ; result: 25 µM
CCCc1cc(=O)oc2cc(OC(=O)CC)c3c(c12)OC(C)(C)C=C3 ; endpoint: EC90 ; strain: Chicago-1 ; cells: CV-1 ; read by: virus yield ; result: 2 µg/mL
Nc1ncnc2c1ncn2C[C@H](O)CO ; endpoint: EC50 ; cells: VERO ; read by: cytopathic effect ; result: 4–40 µg/mL
Nc1ncnc2c1ncn2[C@@H]1C[C@H](S)[C@@H](O)[C@H]1O ; endpoint: EC50 ; cells: CV-1 ; read by: cytopathic effect ; result: >100 µg/mL
CSc1nsc(-c2ccc(OCCCCOc3ccccc3)cc2)c1C#N ; endpoint: EC50 ; cells: HEP-2/L-929/VERO ; read by: plaque count ; result: 0.5 µM
Nc1ncnc2c1ncn2[C@@H]1CC[C@@H](O)[C@H]1O ; endpoint: EC50 ; strain: Edmonston ; cells: CV-1 ; read by: neutral red ; result: >64 µg/mL
CSc1nsc(-c2c(Cl)cccc2Cl)c1C#N ; endpoint: EC50 ; strain: Edmonston ; cells: HEP-2 ; read by: plaque count ; result: >5 µM
CSc1nsc(-c2ccc(OCCCCOc3ccc([N+](=O)[O-])cc3)cc2)c1C#N ; endpoint: EC50 ; cells: HEP-2/L-929/VERO ; read by: plaque count ; result: >0.5 µM
CSc1nsc(-c2ccc3ccccc3c2)c1C#N ; endpoint: EC50 ; strain: Edmonston ; cells: HEP-2 ; read by: plaque count ; result: >20 µM
CS[C@H]1C[C@@H](n2cnc3c(N)ncnc32)[C@H](O)[C@@H]1O ; endpoint: EC50 ; cells: CV-1 ; read by: cytopathic effect ; result: >100 µg/mL
C1=CCC2(CC1)COC(c1ccco1)OC2 ; endpoint: EC50 ; strain: Sugiyama ; cells: VERO ; read by: cytopathic effect ; result: >500 µg/mL
Nc1ncnc2c1ncn2[C@@H]1C=C(CO)[C@@H](O)[C@@H]1O ; endpoint: EC50 ; cells: VERO ; read by: cytopathic effect ; result: 300 µg/mL
CCOC(=O)c1ccc(OCCCOc2ccc(-c3snc(SC)c3C#N)cc2)cc1 ; endpoint: EC50 ; cells: HEP-2/L-929/VERO ; read by: plaque count ; result: >2 µM
N#Cc1c(-c2ccccc2)s[nH]c1=S ; endpoint: EC50 ; strain: Edmonston ; cells: HEP-2 ; read by: plaque count ; result: >60 µM
CCCc1cc(=O)oc2c3c(c4c(c12)OC(C)(C)[C@H](O)[C@@H]4O)O[C@H](C)[C@@H](C)[C@@H]3O ; endpoint: EC50 ; strain: X-1108 ; cells: CV-1 ; read by: cytopathic effect ; result: 10 µg/mL
N=C(N)c1ncn([C@@H]2O[C@H](CO)[C@@H](O)[C@H]2O)n1 ; endpoint: EC50 ; result: 1–100 µM
CSc1nsc(-c2ccc(OS(=O)(=O)c3ccc(C)cc3)cc2)c1C#N ; endpoint: EC50 ; strain: Edmonston ; cells: HEP-2 ; read by: plaque count ; result: >25 µM
Cc1ccc(S(=O)(=O)O)cc1.N/C(=N/N=C/c1ccc2c(c1)OCO2)NO ; endpoint: EC50 ; cells: VERO ; read by: plaque count ; result: >50 µM
Nc1ncnc2c1ncn2C[C@H](O)CO ; endpoint: EC50 ; cells: VERO ; read by: cytopathic effect ; result: 40 µg/mL
Nc1ccn([C@@H]2C=C(CO)[C@@H](O)[C@H]2O)c(=O)n1 ; endpoint: EC50 ; strain: SSPE Niigata-1 ; cells: VERO ; read by: cytopathic effect ; result: 0.05 µg/mL
CSc1nsc(-c2ccc(OCCCOc3ccccc3)cc2)c1C#N ; endpoint: EC50 ; cells: HEP-2/L-929/VERO ; read by: plaque count ; result: 5 µM
O=C(O)c1cn(/N=C/c2ccc([N+](=O)[O-])cc2)c(=O)c2ccccc12 ; endpoint: EC50 ; strain: Edmonston ; cells: HEP-2/L-929/VERO ; read by: plaque count ; result: 42 µM
CSc1nsc(-c2ccc(OCc3ccccc3)cc2)c1C#N ; endpoint: EC50 ; strain: Edmonston ; cells: HEP-2 ; read by: plaque count ; result: 10 µM
CC(/C=N/n1cc(C(=O)O)c2ccccc2c1=O)=C\c1ccccc1 ; endpoint: EC50 ; strain: Edmonston ; cells: HEP-2/L-929/VERO ; read by: plaque count ; result: 10 µM
CSc1nsc(-c2ccc(OCCOc3ccccc3)cc2)c1C#N ; endpoint: EC50 ; cells: HEP-2/L-929/VERO ; read by: plaque count ; result: >20 µM
COc1ncnc2c1ncn2[C@@H]1O[C@H](CO)[C@@H](O)[C@@H]1O ; endpoint: EC50 ; read by: cytopathic effect ; result: >100 µM
COS(=O)(=O)O.N=C(N)c1ccc2cc(OC(=O)c3ccc(N=C(N)N)cc3)ccc2c1 ; endpoint: EC50 ; strain: Sugiyama ; cells: VERO ; read by: cytopathic effect ; result: >110 µg/mL
O=C(O)c1cn(/N=C/CCc2ccccc2)c(=O)c2ccccc12 ; endpoint: EC50 ; strain: Edmonston ; cells: HEP-2/L-929/VERO ; read by: plaque count ; result: >750 µM
C[C@@]1(O)[C@H](O)[C@@H](COP(=O)(O)OP(=O)(O)OP(=O)(O)O)O[C@H]1n1ccc2c(N)ncnc21 ; endpoint: EC50 ; cells: CV-1 ; read by: neutral red ; result: >320 µM
CCOC(=O)c1ccc(OCCCCOc2ccc(-c3snc(SC)c3C#N)cc2)cc1 ; endpoint: EC50 ; cells: HEP-2/L-929/VERO ; read by: plaque count ; result: >2 µM
O=C(O)c1ccccc1/C=N/n1cc(C(=O)O)c2ccccc2c1=O ; endpoint: EC50 ; strain: Edmonston ; cells: HEP-2/L-929/VERO ; read by: plaque count ; result: >600 µM
Nc1ncnc2c1ncn2[C@@H]1C=C[C@@H](O)[C@H]1O ; endpoint: EC50 ; strain: TN1994 ; cells: CV-1 ; read by: neutral red ; result: 0.1 µg/mL
CNc1nc(=O)c2ncn([C@@H]3O[C@H](CO)[C@@H](O)[C@H]3O)c2c(=O)[nH]1 ; endpoint: EC50 ; cells: CV-1 ; read by: cytopathic effect ; result: >100 µM
CCCc1cc(=O)oc2cc(OC(=O)C(C)(C)C)c3c(c12)OC(C)(C)C=C3 ; endpoint: EC50 ; strain: BIL ; cells: CV-1 ; read by: cytopathic effect ; result: 0.1 µg/mL
Nc1ncnc2c1ncn2[C@@H]1C=C(CO)[C@@H](O)[C@H]1O ; endpoint: EC50 ; cells: VERO ; read by: plaque count ; result: 0.2 µg/mL
Nc1nccc2c1ncn2[C@@H]1C[C@H](CO)[C@@H](O)[C@H]1O ; endpoint: EC50 ; cells: VERO ; read by: cytopathic effect ; result: 0.7 µg/mL
CCOC(=O)c1cc(C#N)c2[nH]c3ccccc3n2c1=O ; endpoint: EC50 ; strain: Sugiyama ; cells: VERO ; read by: plaque count ; result: 100 µg/mL
Nc1ncnc2c1ncn2[C@@H]1C=C(CO)[C@@H](O)C1 ; endpoint: EC50 ; cells: VERO ; read by: cytopathic effect ; result: 150 µg/mL
O=C(O)c1cn(/N=C/C=C/c2ccc([N+](=O)[O-])cc2)c(=O)c2ccccc12 ; endpoint: EC50 ; strain: Edmonston ; cells: HEP-2/L-929/VERO ; read by: plaque count ; result: 25 µM
NC(=O)CCN(CCC(N)=O)S(=O)(=O)c1cccc(Nc2nc(Nc3cccc(S(=O)(=O)N(CCC(N)=O)CCC(N)=O)c3)nc(Nc3ccc(-c4ccc(Nc5nc(Nc6cccc(S(=O)(=O)N(CCC(N)=O)CCC(N)=O)c6)nc(Nc6cccc(S(=O)(=O)N(CCC(N)=O)CCC(N)=O)c6)n5)cc4S(=O)(=O)O)c(S(=O)(=O)O)c3)n2)c1 ; endpoint: EC50 ; cells: VERO ; read by: cytopathic effect ; result: 175 µg/mL
Cc1cc(NCCCCCCCCNc2cc(C)nc3cc(N(C)C)ccc23)c2ccc(N(C)C)cc2n1 ; endpoint: EC50 ; strain: Sugiyama ; cells: VERO ; read by: cytopathic effect ; result: >500 µg/mL
CCCc1cc(=O)oc2cc(OS(=O)(=O)c3ccc(C)cc3)cc(O)c12 ; endpoint: EC50 ; strain: BIL ; cells: CV-1 ; read by: cytopathic effect ; result: 0.1 µg/mL
O=C(O)c1cn(/N=C/c2ccccc2)c(=O)c2ccccc12 ; endpoint: EC50 ; strain: Edmonston ; cells: HEP-2/L-929/VERO ; read by: plaque count ; result: 48 µM

A second listing of 6 rows from above:

C[C@@]1(O)[C@H](O)[C@@H](COP(=O)(O)OP(=O)(O)OP(=O)(O)O)O[C@H]1n1ccc2c(N)ncnc21 ; endpoint: EC50 ; cells: CV-1 ; read by: neutral red ; result: >320 µM
CC(C)CS[C@@H]1C[C@H](n2cnc3c(N)ncnc32)[C@@H](O)[C@H]1O ; endpoint: EC50 ; strain: DAVIS ; cells: HEL ; read by: cytopathic effect ; result: >100 µg/mL
Nc1ncnc2c1ncn2[C@@H]1C=C(CO)[C@@H](O)[C@@H]1O ; endpoint: EC50 ; cells: VERO ; read by: cytopathic effect ; result: 300 µg/mL
CCCc1cc(=O)oc2cc(OS(=O)(=O)c3ccc(C)cc3)cc(O)c12 ; endpoint: EC50 ; strain: BIL ; cells: CV-1 ; read by: cytopathic effect ; result: 0.1 µg/mL
CNc1nc(=O)c2ncn([C@@H]3O[C@H](CO)[C@@H](O)[C@H]3O)c2c(=O)[nH]1 ; endpoint: EC50 ; cells: CV-1 ; read by: cytopathic effect ; result: >100 µM
CSc1nsc(-c2c(Cl)cccc2Cl)c1C#N ; endpoint: EC50 ; strain: Edmonston ; cells: HEP-2 ; read by: plaque count ; result: >5 µM

Two numbers with a dash give a range or band. ECn: concentration that inhibits the pathogen or its effect by n%.